Measurements taken from patent US7390837B2, “Germicidal compositions containing phenylmalonaldehyde-type compounds, or mixtures of phenylmalonaldehyde-type compounds and phthalaldehydes, and methods of using such compositions for disinfection or sterilization” (Ethicon, Inc., priority 2004, dated 2008).

Assay: pigskin staining test
Parameters: species or system pig; key to Staining: +: tends to stain certain surfaces; −: do not stain
Settings: for Staining Results: about 10 μL on pigskin, about 24 hours, room temperature; for Staining: summary Table 14

O=Cc1cccc(C=O)c1 [IPA, isophthalaldehyde, reference compound]
Staining Results (0.20% solution): Non-Staining | Staining Results (0.20% solution, listed as EPA): non-staining | Staining: −

O=Cc1ccccc1C=O [OPA, phthalaldehyde]
Staining Results (0.14% solution): Dark Staining | Staining: +

O=Cc1ccc(C=O)cc1 [TPA, terephthalaldehyde, reference compound]
Staining: −
